Source: patent publication US20210204550A1, “STABILIZED FUNGICIDAL COMPOSITION” (priority 2018, published 2021)

Test system: Alternaria solani
Assay: Antifungal activity against Alternaria solani on tomato plants (percent control relative to untreated plants)
Format: in vivo
Conditions: across the three assays of Tables 2-4; agent at 2% in 60:40 (BC:water) dilution

In the case of OCCN(CCO)CCO, the “effect of stabilizing agent on antifungal activity of Paenibacillus sp. strain NRRL B-50972 BC” value is reported as “preserved the antifungal activity”.
